This assay deals with human peripheral blood mononuclear cells (PBMC). Nature of the assay: T-cell proliferation assay (BrdU ELISA), PBMC stimulated with SEB. In kind it is cell-based. (Dividing cells build labelled thymidine or BrdU into new DNA.)

Values joined by “and” are separate entries in the source; they are usually repeats but may differ in a detail not shown here. Identical values can stand only once.

Take `C[C@@H]1C[C@H]2[C@@H]3CCC4=CC(=O)C=C[C@]4(C)[C@@]3(F)[C@@H](O)C[C@]2(C)[C@@]1(O)C(=O)CO` [DEX, dexamethasone]: the OD is 0.847 and 1.382 and 0.919.

The values are drawn from patent publication US20060083754A1, “Pharmaceutical combinations comprising corticoids and immunosuppressants for treating corticoid- and/or calcineurin inhibitors-resistant diseases” (priority 2003, published 2006).
